Molecules are shown by their SMILES.

Assay [1] deals with Fusarium blight fungus (Fusarium graminearum). Description: Fusarium blight anti-germ test (Test Example D). The conditions noted are these: for Fusarium blight anti-germ test (rate of inhibition): 50 ppm/well, Czapek-dox broth, 25°C for 3 days, absorbance 600 nm; for rate of inhibition: Test Example D, Fusarium blight anti-germ test.
Assay [2] has as its system Speckled leaf blotch fungus (Septoria tritici). Description: Speckled leaf blotch anti-germ test (Test Example F). The conditions noted are these: for Speckled leaf blotch anti-germ test (rate of inhibition): 50 ppm/well, Czapek-dox broth, 25°C for 3 days, absorbance 600 nm; for rate of inhibition: Test Example F, speckled leaf blotch anti-germ test.
The subject of assay [3] is Botrytis cinerea. Put plainly: Tomato gray mold pot test (Test Example B). The following applies: for Tomato gray mold pot test (control value): 250 ppm sprayed, 2.5 ml/pot, tomato variety Oogata Fukuju, degree of disease development 2 to 3 days after inoculation; for control value: Test Example B, tomato gray mold pot test.
Assay [4] relates to Gray mold fungus (Botrytis cinerea). Description: Gray mold anti-germ test (Test Example C). The following applies: for Gray mold anti-germ test (rate of inhibition): 50 ppm/well, Czapek-dox broth, 25°C for 3 days, absorbance 600 nm; for rate of inhibition: Test Example C, gray mold anti-germ test.
Assay [5] relates to Magnaporthe grisea. Put plainly: Rice blast disease pot test (Test Example A). The conditions noted are these: for Rice blast disease pot test (control value): 250 ppm sprayed, 2.5 ml/pot, rice variety Sachikaze, degree of disease development 6 to 8 days after inoculation; for control value: Test Example A, rice blast disease pot test.
The subject of assay [6] is Anthracnose fungus (Glomerella cingulata). Put plainly: Anthracnose anti-germ test (Test Example E). The following applies: for Anthracnose anti-germ test (rate of inhibition): 50 ppm/well, Czapek-dox broth, 25°C for 3 days, absorbance 600 nm; for rate of inhibition: Test Example E, anthracnose anti-germ test.

`Cc1cccc2c1OC(C)(C)N=C2n1cnc2c(C)c(Br)ccc21`: in assay [1], the “Fusarium blight anti-germ test (rate of inhibition)” value is reported as “L (L represents a control value or rate of inhibition of 50% or less)”. Besides, the “Speckled leaf blotch anti-germ test (rate of inhibition)” value in assay [2] is reported as “L (L represents a control value or rate of inhibition of 50% or less)”. Also, in assay [3], the “Tomato gray mold pot test (control value)” value (“Tomato gray mold pot test” for short) is “L (L represents a control value or rate of inhibition of 50% or less)”. Also, the “Gray mold anti-germ test (rate of inhibition)” value in assay [4] is on record as “L (L represents a control value or rate of inhibition of 50% or less)”. Also, in assay [5], the “Rice blast disease pot test (control value)” value (“Rice blast disease pot test” for short) was “H (H represents a control value or rate of inhibition of larger than 50%)”. Also, in assay [6], the “Anthracnose anti-germ test (rate of inhibition)” value is reported as “H (H represents a control value or rate of inhibition of larger than 50%)”.

Regarding `Cc1ccc2c(c1)OC(C)(CC(=O)O)N=C2n1cnc2c(C)c(C)ccc21` (stereo not drawn), in assay [1], the “Fusarium blight anti-germ test (rate of inhibition)” value is “L (L represents a control value or rate of inhibition of 50% or less)”. The “Speckled leaf blotch anti-germ test (rate of inhibition)” value in assay [2] was “L (L represents a control value or rate of inhibition of 50% or less)”. Moreover, the “Tomato gray mold pot test” value in assay [3] is “L (L represents a control value or rate of inhibition of 50% or less)”. Also, in assay [4], the “Gray mold anti-germ test (rate of inhibition)” value was “L (L represents a control value or rate of inhibition of 50% or less)”. Besides, the “Rice blast disease pot test” value in assay [5] is recorded as “H (H represents a control value or rate of inhibition of larger than 50%)”. In addition, in assay [6], the “Anthracnose anti-germ test (rate of inhibition)” value is “L (L represents a control value or rate of inhibition of 50% or less)”.

Take `Cc1ccc2c(C3=NC(C)(C)Oc4ccccc43)cnn2c1C`: the “Fusarium blight anti-germ test (rate of inhibition)” value in assay [1] is “H (H represents a control value or rate of inhibition of larger than 50%)”. Besides, in assay [2], the “Speckled leaf blotch anti-germ test (rate of inhibition)” value was “H (H represents a control value or rate of inhibition of larger than 50%)”. Moreover, the “Tomato gray mold pot test” value in assay [3] is “H (H represents a control value or rate of inhibition of larger than 50%)”. Also, the “Gray mold anti-germ test (rate of inhibition)” value in assay [4] is “H (H represents a control value or rate of inhibition of larger than 50%)”. In addition, in assay [5], the “Rice blast disease pot test” value is on record as “H (H represents a control value or rate of inhibition of larger than 50%)”. Besides, in assay [6], the “Anthracnose anti-germ test (rate of inhibition)” value is given as “H (H represents a control value or rate of inhibition of larger than 50%)”.

On to `CC1(C)N=C(n2cnc3c(F)c(F)ccc32)c2c(F)cccc2O1`, for which, in assay [1], the “Fusarium blight anti-germ test (rate of inhibition)” value was “L (L represents a control value or rate of inhibition of 50% or less)”. Moreover, the “Speckled leaf blotch anti-germ test (rate of inhibition)” value in assay [2] was “L (L represents a control value or rate of inhibition of 50% or less)”. In addition, the “Tomato gray mold pot test” value in assay [3] is on record as “L (L represents a control value or rate of inhibition of 50% or less)”. Moreover, in assay [4], the “Gray mold anti-germ test (rate of inhibition)” value was “L (L represents a control value or rate of inhibition of 50% or less)”. Also, the “Rice blast disease pot test” value in assay [5] was “L (L represents a control value or rate of inhibition of 50% or less)”. For the same compound, the “Anthracnose anti-germ test (rate of inhibition)” value in assay [6] is “L (L represents a control value or rate of inhibition of 50% or less)”.

Take `CC1(C)N=C(c2cnn3ccccc23)c2ccccc2O1`: in assay [1], the “Fusarium blight anti-germ test (rate of inhibition)” value is on record as “H (H represents a control value or rate of inhibition of larger than 50%)”. In addition, in assay [2], the “Speckled leaf blotch anti-germ test (rate of inhibition)” value was “H (H represents a control value or rate of inhibition of larger than 50%)”. In assay [3], the “Tomato gray mold pot test” value is “H (H represents a control value or rate of inhibition of larger than 50%)”. The “Gray mold anti-germ test (rate of inhibition)” value in assay [4] was “H (H represents a control value or rate of inhibition of larger than 50%)”. In assay [5], the “Rice blast disease pot test” value is on record as “H (H represents a control value or rate of inhibition of larger than 50%)”. Also, in assay [6], the “Anthracnose anti-germ test (rate of inhibition)” value was “H (H represents a control value or rate of inhibition of larger than 50%)”.

Take `CCCC1(C)N=C(n2cnc3c(C)c(Br)cnc32)c2cccc(F)c2O1` (stereo not drawn): the rate of inhibition result in assay [1], in assay [2], in assay [4] and in assay [6] was “H (H represents a control value or rate of inhibition of larger than 50%)” in each case. Further, the control value entry in assay [3] and in assay [5] was “H (H represents a control value or rate of inhibition of larger than 50%)” throughout.

As to `Cc1cc2ncn(C3=NC(C)(C)Oc4ccccc43)c2cc1C`, the “Fusarium blight anti-germ test (rate of inhibition)” value in assay [1] is “L (L represents a control value or rate of inhibition of 50% or less)”. For the same compound, the “Speckled leaf blotch anti-germ test (rate of inhibition)” value in assay [2] is on record as “H (H represents a control value or rate of inhibition of larger than 50%)”. Besides, the “Tomato gray mold pot test” value in assay [3] was “H (H represents a control value or rate of inhibition of larger than 50%)”. Further, the “Gray mold anti-germ test (rate of inhibition)” value in assay [4] is on record as “H (H represents a control value or rate of inhibition of larger than 50%)”. Further, the “Rice blast disease pot test” value in assay [5] is given as “L (L represents a control value or rate of inhibition of 50% or less)”. Moreover, the “Anthracnose anti-germ test (rate of inhibition)” value in assay [6] was “H (H represents a control value or rate of inhibition of larger than 50%)”.

As to `CCCC1(C)N=C(c2cnn3c(C)c(C)cnc23)c2ccc(F)c(F)c2O1` (stereo not drawn), the rate of inhibition result in assay [1], in assay [2], in assay [4] and in assay [6] was “H (H represents a control value or rate of inhibition of larger than 50%)” in each case. Also, the control value result in assay [3] and in assay [5] was “H (H represents a control value or rate of inhibition of larger than 50%)” each time.

Regarding `Cc1ccc2c(ncn2C2=NC(C)(C)Oc3c(F)cccc32)c1C`, in assay [1], the “Fusarium blight anti-germ test (rate of inhibition)” value is recorded as “H (H represents a control value or rate of inhibition of larger than 50%)”. In addition, in assay [2], the “Speckled leaf blotch anti-germ test (rate of inhibition)” value is on record as “L (L represents a control value or rate of inhibition of 50% or less)”. For the same compound, the “Tomato gray mold pot test” value in assay [3] is “H (H represents a control value or rate of inhibition of larger than 50%)”. In addition, the “Gray mold anti-germ test (rate of inhibition)” value in assay [4] was “H (H represents a control value or rate of inhibition of larger than 50%)”. Also, the “Rice blast disease pot test” value in assay [5] is given as “H (H represents a control value or rate of inhibition of larger than 50%)”. Moreover, in assay [6], the “Anthracnose anti-germ test (rate of inhibition)” value is reported as “H (H represents a control value or rate of inhibition of larger than 50%)”.

Regarding `CCCC1(C)N=C(n2cnc3c(C)c(C)cnc32)c2cccc(F)c2O1` (stereo not drawn), the rate of inhibition result in assay [1], in assay [2], in assay [4] and in assay [6] was “H (H represents a control value or rate of inhibition of larger than 50%)” throughout. The control value entry in assay [3] and in assay [5] was “H (H represents a control value or rate of inhibition of larger than 50%)” throughout.

With `COCC1(C)N=C(c2cnn3c(C)cccc23)c2ccccc2S1` (stereo not drawn), the rate of inhibition entry in assay [1], in assay [2], in assay [4] and in assay [6] was “H (H represents a control value or rate of inhibition of larger than 50%)” in each case. Also, the control value result in assay [3] and in assay [5] was “H (H represents a control value or rate of inhibition of larger than 50%)” throughout.

As to `Cc1ccc2c(ncn2C2=NC(C)(C)Oc3cc(Cl)ccc32)c1C`, the “Fusarium blight anti-germ test (rate of inhibition)” value in assay [1] is on record as “H (H represents a control value or rate of inhibition of larger than 50%)”. In assay [2], the “Speckled leaf blotch anti-germ test (rate of inhibition)” value is reported as “L (L represents a control value or rate of inhibition of 50% or less)”. Besides, the “Tomato gray mold pot test” value in assay [3] was “H (H represents a control value or rate of inhibition of larger than 50%)”. Also, the “Gray mold anti-germ test (rate of inhibition)” value in assay [4] was “H (H represents a control value or rate of inhibition of larger than 50%)”. In addition, the “Rice blast disease pot test” value in assay [5] is listed as “L (L represents a control value or rate of inhibition of 50% or less)”. Moreover, in assay [6], the “Anthracnose anti-germ test (rate of inhibition)” value is on record as “H (H represents a control value or rate of inhibition of larger than 50%)”.

As to `CCCCCC1(C)N=C(c2cnc3c(C)ccnn23)c2ccccc2O1` (stereo not drawn), the rate of inhibition result in assay [1], in assay [2], in assay [4] and in assay [6] was “H (H represents a control value or rate of inhibition of larger than 50%)” in each case. Also, the control value result in assay [3] and in assay [5] was “H (H represents a control value or rate of inhibition of larger than 50%)” throughout.

The record behind these values is patent EP4821928A1, “BICYCLIC HETEROCYCLIC COMPOUND AND FUNGICIDE FOR AGRICULTURAL AND HORTICULTURAL USE CONTAINING SAME AS ACTIVE INGREDIENT” (dated 2026).
